From article PMC7265403, “The low density receptor-related protein 1 plays a significant role in ricin-mediated intoxication of lung cells” (2020)

Biological target: LRP1 cluster II, biotinylated, not stated, Q07954 852-1182
Assay: BLI

Substance: Ricin B subunit (RTB), purified biotin (biotinylated)
- wavelength shift: 0.5 nm
